Reference: PubChem BioAssay AID1259414 (Drosophila RNAi Screening Center, 2018)

Purpose: 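Fly genes that alter Wolbachia amount inside host cells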 (primary screen)
System: Drosophila JW18 cells infected with Wolbachia
Reagent: long dsRNA against Drosophila genes, 0.25 µg dsRNA per well of a 384-well plate
Time to read-out: 5 days
Challenge: cells persistently infected with Wolbachia before knock-down; no added drug
Measurement: 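Imaged fluorescence in situ signal for Wolbachia 23S rRNA per DAPI-counted host cell, given as a robust z-score within each plate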
Reading the numbers: Wolbachia per cell robust z: higher = more Wolbachia per host cell than the plate typical
Rule for the call: 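Active if absolute robust z reaches 1.5 in two or more of three replicates, leaving out multi- or no-target dsRNAs, genes unexpressed in JW18 and A1 wells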
In all, the deposit lists about 24,000 reagents; below is a random part of those with a known target gene and a result. In the full data, about 1,210 (5%) are marked active. 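Inactive calls also include excluded dsRNAs with several or no targets, genes unexpressed in JW18, and well A1, regardless of score.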

gene | dsRNA | Wolbachia per cell robust z, rep 1 | Wolbachia per cell robust z, rep 2 | Wolbachia per cell robust z, rep 3 | outcome
Ndfip | DRSC11201 | -0.988 | -0.382 | -1.43 | inactive
CG9586 | DRSC03270 | 1.24 | -0.943 | -0.341 | inactive
CG9586 | DRSC30001 | 0.25 | -6.61 | -0.789 | inactive
miple2 | DRSC08723 | 0.657 | 0.581 | -0.442 | inactive
CG13893 | DRSC08363 | -0.356 | -0.492 | 0.803 | inactive
ND-B22 | DRSC03193 | -0.0964 | 0.496 | 0.124 | inactive
ND-B22 | DRSC28526 | -2.08 | -0.274 | 0.469 | inactive
btsz | DRSC15320 | 0.172 | 1.4 | 0.594 | inactive
btsz | DRSC16231 | -1.92 | -0.841 | -2.1 | inactive
btsz | DRSC23250 | -2.91 | 0.323 | 0.148 | inactive
btsz | DRSC28867 | 0.348 | 1.08 | -0.0224 | inactive
CG4325 | DRSC23171 | -0.231 | 0.842 | 1.2 | inactive
CG4325 | DRSC26573 | 0.496 | 0.228 | 1.58 | inactive
bol | DRSC08964 | -1.13 | 1.29 | 0.507 | inactive
bol | DRSC10444 | -2.34 | 0.273 | -1.54 | active
bol | DRSC11329 | -0.522 | -5.99 | -0.67 | inactive
bol | DRSC26869 | -0.676 | -1.08 | -1.33 | inactive
RpS23 | DRSC07169 | 1.32 | 1.03 | 2.52 | inactive
RpS23 | DRSC26313 | 3.54 | 2.88 | 5.14 | active

Targets above whose target name begins with R or r (2):
gene | dsRNA | Wolbachia per cell robust z, rep 1 | Wolbachia per cell robust z, rep 2 | Wolbachia per cell robust z, rep 3 | outcome
RpS23 | DRSC07169 | 1.32 | 1.03 | 2.52 | inactive
RpS23 | DRSC26313 | 3.54 | 2.88 | 5.14 | active

Next entries:
gene | dsRNA | Wolbachia per cell robust z, rep 1 | Wolbachia per cell robust z, rep 2 | Wolbachia per cell robust z, rep 3 | outcome
tsu | DRSC07265 | 1.33 | 1.56 | -0.132 | inactive
CG9168 | DRSC08633 | -0.316 | 0.0639 | -1.09 | inactive
Prp18 | DRSC16802 | 1.83 | 0.0993 | 2.55 | active
CG43055 | DRSC40544 | -3.07 | -0.35 | -2.64 | inactive
Shal | DRSC09625 | -1.23 | 0.203 | -0.227 | inactive
Shal | DRSC11283 | -0.912 | -0.28 | 0.165 | inactive
Tep2 | DRSC02679 | -0.145 | -0.277 | -4.51 | inactive
Tep2 | DRSC03451 | -0.323 | 0.432 | -0.171 | inactive
mRpL41 | DRSC06257 | -0.773 | -2.97 | 0.77 | inactive
mRpL41 | DRSC29395 | 0.66 | -0.456 | 0.22 | inactive
mRpL41 | DRSC39029 | -4.29 | -0.856 | -0.79 | inactive
